Data from the supplement of paper PMC9931576.
Human monoclonal antibodies against the spike receptor-binding domain (heavy:light variable regions). IC50 against pseudoviruses bearing the spike of naturally observed variants; lower = stronger; >10 µg/ml means not reached at the top dose. No active / inactive call. The stated detection limit is 0.0005 µg/ml; values near or below 0.001 µg/ml lie at the floor of the assay.

Experiments:
Test in all cases: pseudovirus neutralization IC50; higher = weaker neutralization
[1] = target: SARS-CoV-2 Omicron BA.1 spike pseudovirus
Procedure: (§1)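 Single-round VSV luciferase pseudovirus mixed with antibody dilutions for 1 h and put on Huh-7 cells for about a day; IC50 from the dose curve.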

[2] = target: SARS-CoV-2 Omicron BA.2 spike pseudovirus
Procedure: as §1

[3] = target: SARS-CoV-2 Omicron BA.2.75 spike pseudovirus
Procedure: as §1

[4] = target: SARS-CoV-2 Omicron BA.5 spike pseudovirus
Procedure: as §1

[5] = target: SARS-CoV-2 Omicron BQ.1.1 spike pseudovirus
Procedure: as §1

[6] = target: SARS-CoV-2 Omicron XBB spike pseudovirus
Procedure: as §1

[7] = target: SARS-CoV-2 early D614G spike pseudovirus
Procedure: as §1

Binder | pseudovirus neutralization IC50 [1] [µg/mL] | pseudovirus neutralization IC50 [2] [µg/mL] | pseudovirus neutralization IC50 [3] [µg/mL] | pseudovirus neutralization IC50 [4] [µg/mL] | pseudovirus neutralization IC50 [5] [µg/mL] | pseudovirus neutralization IC50 [6] [µg/mL] | pseudovirus neutralization IC50 [7] [µg/mL]
BD56-687 (protein) chain 1: QVQLQESGPGLVKPSQTLSLTCSVSGGSISSGDFYWSWIRQPPGKGLEWIGYIYYTGITYYNASLKSRVTISVDTSKNQFSLKLNSVTAADTAVYSCARFIRSCSSGSCYAFDLWGQGTLVTVSS chain 2: QSALTQPASVSGSPGQSITISCTGTSSDVGSYTFVSWYQQHPGKAPKLIIYEVSQRPSGISNRFSGSKSGNTASLTISGLHAEDEAYYYCCSYVGSTILFGGGTKLTVL | > 10 | > 10 | > 10 | > 10 | > 10 | > 10 | > 10
BD56-688 (protein) chain 1: EVQLVQSGAEVKKPGESLKISCKGSGYSFTSYWIGWVRQMPGKGLEWMGIIYPGDSDTRYSPSFQGQVTISADKSISTAYLQWSSLKASDTAMYYCARLLCGGDCPLEYWGQGTLVTVSS chain 2: QSALTQPASVSGSPGQSITISCTGTSSDVGDYNYVSWYQQHPGKAPKLMIYDVSDRPSGVSNRFSGSKSGNTASLTISGLQAEDEADYYCSSYTSSSTLFGGGTKLTVL | > 10 | > 10 | > 10 | > 10 | > 10 | > 10 | > 10
BD56-698 (protein) chain 1: QVQLVQSGSELKKPGASVKVSCKASGYTFTKYALNWVRQAPGQGLEWMGWINTNSGDPTYAQGFRGRFVFALDTSVSTAYLQISSLKAEDTAVYYCARVFREAAAVYQYYYAMEVWGQGTTVTVSS chain 2: SYVLTQPPSVSVAPGQTARITCGGNDIGSKSVHWYEQKPGQAPVLVVHDDSVRPSGIPERFSGSNSGNTATLTISRVEAGDEADYYCQVWDSSGVFGGGTTLTVL | 1.86 | 2.31 | 2.54 | 3.45 | > 10 | > 10 | > 10
BD56-703 (protein) chain 1: QVQLVESGGGVVQPGRSLRLSCAASGFAFRNYGMHWLRQAPGKGLQWVAVISNGGGNKAYADSVKGRFTISRDNSKNTLSLQMNSLRPEDTAVYFCAKDPEDGIVGTTGWIDSWGQGALVTVSS chain 2: SYVLTQPPSVSVAPGQTARITCGGQDIGSKSVHWYQQKPGQAPVLVVYDDSDRPSGIPERFSGSNSGNTATLTISRVEAGDEADYYCQVWESRGDHWVFGEGTKLTVL | 3.66 | 3.49 | 2.99 | 3.55 | 7.82 | 6.62 | > 10
BD56-705 (protein) chain 1: EVQLVQSGTEVKKPGESLKISCKASGFMFTSYWIGWVRQMPGKGLEWMGVIYPGDSDTRYSPSFQGQVTISADKAINTAYLQWSSLKASDTAMYFCVLPLGRTYQAPFDYWGQGTLVTVSS chain 2: EIVLTQSPGTLSLSPGERATLSCRASQSLSSSYLAWYQQKPGQAPRLLIYGASDRATGIPDRFSGSGSGTDFTLTISRLEPEDFAVFYCQHYGSSPLTFGGGTKVEIK | 2.65 | 5.37 | 4.79 | 3.45 | 3.39 | 2.93 | > 10
BD56-713 (protein) chain 1: EVQLVESGGGLVQPGGSLRLSCAASGFTFSDYSMNWVRQAPGKGLEWISYITSSSTNIYHADSVKGRFTISRDNAKNSLYLQMNSLRAEDTAVYFCARDYDTTGPGDLFDYWGQGTLVTVSS chain 2: SYVLTQPPSVSVAPGKTARITCGGDNIGSKSVHWYQQKPGQAPVLVIYYDSDRPSGIPDRFSGSNSGNTATLTISRVEAGDEADYYCQVWDTGRVFGGGTKLTVL | > 10 | > 10 | > 10 | > 10 | > 10 | > 10 | > 10
BD56-715 (protein) chain 1: QVQLVQSGAEVKKPGASLKVSCKASGYSFTSYGISWVRQAPGQGLEWMGWISPYNRATNYAQKFQGRVTMTTDTSTSTVYMELRSLRSDDTAVYYCVRDDDFVWGSYRLFGDYWGQGTLVTVSS chain 2: QSVLTQPPSASGTPGQRVTISCSGSSSNIGYYYVYWYQHLPGTAPKLLIYRNNQRPSGVPDRFSGSKSGTSASLAISGLRSEDEADYYCASWDDSLSGPVFGGGTKLTVL | > 10 | > 10 | > 10 | > 10 | > 10 | > 10 | > 10
BD56-719 (protein) chain 1: EVQLVQSGAEVKKPGESLKISCKGSGYIFTTYWIGWVRQMPGKGLEWMGIIYPGDSDIRYSPSFQGQVTISADKSFNTAYLQWSSLQASDTAMYYCARLVSFDWLADFWGQGTLVTVSS chain 2: DIVMTQSPLSLSVSPGQPASISCKSSQSLLHSDGTTSLYWYLQKPGQPPQLLIYEVSNRFSGVPARFSGSGSGTDFTLKISRVEAEDVGVYYCMQNILLFTWTFGQGTKVEIK | 0.00438 | 0.00805 | 0.00792 | 0.00711 | > 10 | 4.01 | 0.00434
BD56-722 (protein) chain 1: QVQLVESGGGVVQPGRSLRLSCAASGFTFSNCPIHWVRQAPGKGLEWVAVISYDGINQYYAESVKGRFTVSRDNSKNTVFLQMNSLRPEDTAVYYCARDRQIGWFGDGDGFEIWGQGTVVTVSS chain 2: DIVLTQSPATLSLSPGERATLSCRASQSVSSHLAWYQQKPGQAPRLLIYGASYRATGIPARFSGSGSGTDFTLTISSLEPEDFAVYYCHQRSNWPPYTFGQGTKLEIK | 1.83 | 1.52 | 2.59 | 2.01 | 3.44 | 4.96 | 2.3
TAU-2220 (protein) chain 1: QVQLVQSGAEVKKPGASVKVSCKASGYTFTNYFIHWVRQAPGQGLEWMGMINPSVGSTTYAQNFQGRVTMTRDTSTSTVYMELSSLRSEDTAIYYCARTHVAQLWEIWYFDIWGRGTLVTVSS chain 2: QSVLTQPPSASGTPGQRVTISCSGSTSNIGSNAVNWYQQLPGTAPKLLIYSDNHRPSGVPDRFSGSRSGTSASLAISRLQSEDEADYYCAAWDDSLKGVFGGGTKLTVL | > 10 | > 10 | > 10 | > 10 | > 10 | > 10 | > 10
BD56-730 (protein) chain 1: QVQLVESGGGVVQPGRSLRLSCAASAFTFSTYAMYWVRQAPGKGLEWVALISYDGINKDYADSVKGRFTISRDNSKNTLYLQMNGLRTEDTAVYYCARDLARAQLVGDDYYYYYGMDVWGQGTTVTVSS chain 2: SYELTQPPSVSVSPGQTARITCSGDALPKQHAYWYQQKPGQAPVLVIYKDNERPSGIPERFSGSSSGTTVTLTITGVQAEDEADYYCQSAGISGTYVVFGGGTKLTVL | 0.79 | 0.99 | 1.89 | 0.914 | 5.33 | 3.94 | 5.91
TAU-2310 (protein) chain 1: EVQLLESGGGLVQPGGSLRLSCAASGFTFSNYVMSWVRQAPGKGLEWVSGIGGSGDSTYYADSVKGRFTISRDNSKNTLYLQINSLRAEDTAVYYCAKGAAPYYYYYYGMDVWGQGTTVTVSS chain 2: QSALTQPASVSGSPGQSITISCTGTSSDVGGYDYVSWYQQHPGKAPKLMIYEVSDRPSGVSNRFSGSKSGSTASLTISGLQAEDEADYYCSSYTSSSALYVFGTGTKVTVL | > 10 | > 10 | > 10 | > 10 | > 10 | > 10 | 5.57
